Key:
NDM-1 = NDM-1 (Klebsiella pneumoniae, UniProt C7C422); conditions: read-out: NDM-1 IC50; NDM-1 enzyme, CCF2-FA substrate
IMP-1 = IMP-1 (Serratia marcescens, UniProt P52699); conditions: read-out: IMP-1 IC50; IMP-1 enzyme, CCF2-FA substrate
VIM-1 = VIM-1 (Pseudomonas aeruginosa (strain ATCC 15692 / DSM 22644 / CIP 104116 / JCM 14847 / LMG 12228 / 1C / PRS 101 / PAO1), UniProt A0A0F7KYQ8); assay: Enzyme activity: determination of IC50, fluorescence assay with CCF2-FA substrate (VIM-1); format: biochemical; conditions: read-out: VIM-1 IC50, VIM-1 enzyme
[1] = tested on: Escherichia coli expressing NDM-1 (CLB30016); assay: Antibiotic potentiation activity: synergistic concentration (MITC95) with imipenem, OD600 growth; format: cell-based; conditions: (CLB30016, NDM-1), 95% growth inhibition
[2] = tested on: Klebsiella pneumoniae expressing VIM-1 (IHMA599644); assay: as above; format: cell-based; conditions: Klebsiella pneumoniae IHMA599644 (VIM-1), 95% growth inhibition
[3] = tested on: Serratia marcescens expressing IMP-1 (CL5741); assay: as above; format: cell-based; conditions: Serratia marcescens CL5741 (IMP-1), 95% growth inhibition

The chains behind the UniProt entries cited, without tags or fusion partners. Residues count along the entry.
UniProt P52699, 19-246 limits assumed: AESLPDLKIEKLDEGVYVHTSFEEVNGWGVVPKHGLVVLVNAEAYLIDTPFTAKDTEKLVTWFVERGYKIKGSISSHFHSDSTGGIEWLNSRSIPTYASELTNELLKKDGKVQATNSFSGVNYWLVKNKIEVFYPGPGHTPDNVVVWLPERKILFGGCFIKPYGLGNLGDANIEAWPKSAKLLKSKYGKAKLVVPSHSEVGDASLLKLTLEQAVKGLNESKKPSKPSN

Structure (SMILES)	IC50 (NDM-1) [nM]	IC50 (IMP-1) [nM]	IC50 (VIM-1) [nM]	Escherichia coli MITC95 [1] [µM]	Klebsiella pneumoniae MITC95 [2] [µM]	Serratia marcescens MITC95 [3] [µM]
CC(C)(O)C1CCN(c2ccc(-c3cccc(S(N)(=O)=O)c3-c3nn[nH]n3)cn2)C1 (centres unmarked)	9.13	68.5	356	4.688	>200	
Nc1nc2c(-c3ccc(CC4CCNCC4)c(S(N)(=O)=O)c3-c3nn[nH]n3)cccc2s1	0.728	19.2	2.23	0.7813	1.563	3.125
